The match of structure and compound is tentative.
Key:
[1] = test system: trichosanthin (TCS); conditions: ref [12],[13]; cited from earlier work
[2] = test system: active form of maize RIP (MOD); conditions: ref [14]; cited from earlier work
[3] = test system: Shiga toxin (Stx) 1; conditions: ref [15],[16]; cited from earlier work
[4] = target: T1, RTA (Ricinus communis, UniProt P02879); assay: Isothermal titration calorimetry (ITC) of P2 variant peptides with RTA; conditions: for N / Kd: ITC-200, 25 °C, 20 mM Tris-Cl, 100 mM NaCl, pH 7.0, one-site binding model; for N: 600 µM P2 variant peptide into 35 µM RTA; for Kd: read-out: binding affinity, KD, 20 x 2 µL of 600 µM P2 variant peptide into 200 µL cell with 35 µM RTA
[5] = target: T1, RTA; assay: Co-crystal structure of RTA with P2 peptide; conditions: 1.6 Å, only last 6 residues (GFGLFD) fitted

| Structure (SMILES) | interaction with trichosanthin (TCS) [1] | interaction with active form of maize RIP (MOD) [2] | interaction with Shiga toxin (Stx) 1 [3] | N [4] | stoichiometry of complex with RTA in crystal [5] | Kd [4] | change of RTA binding affinity (KD) of C6 compared with C11 ([4]; ITC, C6 compared to C11) |
| --- | --- | --- | --- | --- | --- | --- | --- |
| CSCC[C@H](NC(=O)[C@H](CC(=O)O)NC(=O)[C@H](CC(=O)O)NC(=O)[C@H](CC(=O)O)NC(=O)[C@@H](N)CO)C(=O)NCC(=O)N[C@@H](Cc1ccccc1)C(=O)NCC(=O)N[C@@H](CC(C)C)C(=O)N[C@@H](Cc1ccccc1)C(=O)N[C@@H](CC(=O)O)C(=O)O | interacts with several RIPs | interacts with several RIPs | interacts with several RIPs | 1.0±0.4 | – | – | – |
| CSCC[C@H](NC(=O)[C@H](CC(=O)O)NC(=O)[C@@H](N)CC(=O)O)C(=O)NCC(=O)N[C@@H](Cc1ccccc1)C(=O)NCC(=O)N[C@@H](CC(C)C)C(=O)N[C@@H](Cc1ccccc1)C(=O)N[C@@H](CC(=O)O)C(=O)O | – | – | – | 1.1±0.1 | 1:1 complex | 3.4 µM | – |
| CC(C)C[C@H](NC(=O)CNC(=O)[C@H](Cc1ccccc1)NC(=O)CN)C(=O)N[C@@H](Cc1ccccc1)C(=O)N[C@@H](CC(=O)O)C(=O)O | – | – | – | – | – | 18.8 µM | decreasing eight-fold |

From publication PMC5086656, “Crystal Structure of Ribosome-Inactivating Protein Ricin A Chain in Complex with the C-Terminal Peptide of the Ribosomal Stalk Protein P2” (2016)
